B1: A97V (antibody, V domains shown)
VH: EVQLVQSGAEVKKPGATVKMSCKASGYTFTDYYMKWVKQAPGKSLEWIGDINPNNGDTFYNQKFQGRATLTVDKSSNTAYMELSSLRSEDTAVYYCVKPGRTYWGQGTLVTVS
VL: DIVLTQSPDSLAVSLGERVTMSCKSSQSLLDSGNQKNYLVWYQQKPGQPPKLLIYGASTRESGVPDRFTGSGSGTDFTLTISSVQAEDVAVYYCQNDHSYPLTFGAGTKLELK
B2: A16D (antibody, V domains shown)
VH: B1 VH with A16D, V97A
VL: B1 VL
B3: A16D-A97V (antibody, V domains shown)
VH: B1 VH with A16D
VL: B1 VL
notes: IgG1
B4: 4AA (antibody, V domains shown)
VH: EVQLVQSGAEVKKPGDTVKMSCKASGYTFTDYYMKWVKQAPGKAPGKSLEWIGDINPNNGDTFYNQKFQGRATLTVDKSSNTAYMELSSLRSEDTAVYYCVKPGRTYWGQGTLVTVS
VL: B1 VL
notes: IgG1
B5: Q39K (antibody, V domains shown)
VH: B1 VH with A16D, Q39K
VL: B1 VL
B6: A40T (antibody, V domains shown)
VH: B1 VH with A16D, A40T
VL: B1 VL
B7: Q39K plus S76I (antibody, V domains shown)
VH: B1 VH with A16D, Q39K, S76I
VL: B1 VL
B8: S76N plus S58N (antibody, V domains shown)
VH: B1 VH with A16D, S76N
VL: B1 VL with S58N
B9: S76N (antibody, V domains shown)
VH: B1 VH with A16D, S76N
VL: B1 VL
B10: S76I (antibody, V domains shown)
VH: B1 VH with A16D, S76I
VL: B1 VL
B11: W insertion between W104 and G105 (antibody, V domains shown)
VH: EVQLVQSGAEVKKPGDTVKMSCKASGYTFTDYYMKWVKQAPGKSLEWIGDINPNNGDTFYNQKFQGRATLTVDKSSNTAYMELSSLRSEDTAVYYCVKPGRTYWWGQGTLVTVS
VL: B1 VL
B12: A40T plus S76I (antibody, V domains shown)
VH: B1 VH with A16D, A40T, S76I
VL: B1 VL

Changes are numbered by the printed parent chain. In names and notes the source's numbering stands.

The target of one test is T1, PrPc-Fc (Homo sapiens (Human)., UniProt P04156, biotinylated (for capture on streptavidin biosensors)).
Experiment: not given
Particulars: both partners purified.
As for B1, the Kd came to 5.15 nM.

The molecule B2 gave a Kd of 3.36 nM.

The target of another test is T1, PrPc-Fc.
Experiment: not given
Particulars: both partners purified. This is another data set of the same source.
Molecule B3 returned a Kd of 2.06 nM.

For B4, binding was characterised by a dissociation constant (Kd) of 0.203 nM.

The target of the next test is full-length PrPc displayed on 293T cells (293T-PrPc) (Homo sapiens (Human)., UniProt P04156).
Experiment: not given
Particulars: one partner purified.
B3 had a Kd of 1.01 nM.

Turning to B4, the Kd worked out at 0.0927 nM.

A further test has as its target T1, PrPc-Fc.
Experiment: not given
Particulars: both partners purified. The source holds these as a separate data set.
As for B3, the koff was found to be 2.42e-05 s⁻¹ and the on-rate (kon) turned out to be 11700 M⁻¹ s⁻¹.

Take B5: the Kd was 3.14 nM, the koff is 3.4e-05 s⁻¹ and the on-rate constant (kon) is 10800 M⁻¹ s⁻¹.

B6: the equilibrium dissociation constant (Kd) was determined as 1.33 nM, the koff worked out at 1.48e-05 s⁻¹ and the association rate constant (kon) was 11100 M⁻¹ s⁻¹.

The molecule B7 displayed a Kd of 3.55 nM, a koff of 3.72e-05 s⁻¹ and a kon of 10500 M⁻¹ s⁻¹.

Consider B8, for which the Kd came out at 6.91 nM, the off-rate constant (koff) is 8.29e-05 s⁻¹ and the kon is 12000 M⁻¹ s⁻¹.

As to B9, binding was characterised by a dissociation constant (Kd) of 7.76 nM, the off-rate constant (koff) amounted to 9.18e-05 s⁻¹ and the kon came out at 11800 M⁻¹ s⁻¹.

Turning to B10, binding was put at a Kd of 4.86 nM, the koff worked out at 6.27e-05 s⁻¹ and the kon was determined as 12900 M⁻¹ s⁻¹.

As to B4, the koff is 2.27e-06 s⁻¹ and the kon came out at 11200 M⁻¹ s⁻¹.

B11 registered a Kd of 31.7 nM, a koff of 0.00015 s⁻¹ and a kon of 4730 M⁻¹ s⁻¹.

The molecule B12 registered a Kd of 2.47 nM, an off-rate (koff) of 2.25e-05 s⁻¹ and a kon of 9090 M⁻¹ s⁻¹.

For a further test, the target named is PrPc-35aa (Homo sapiens (Human).). Briefly: BLI. Particulars: both partners purified.
In turn, B3 registered a Kd of 0.113 nM. That is a sub-nanomolar value.

The values above are taken from paper PMC10968383 (Bioengineering, 2024).
